Like-named read-outs stand apart in the source and are kept apart here.
What was measured:
[1] = molecular target: Acetylcholine receptor on AchR-overexpressed TE671 cells; test: cell-based or functional assay
[2] = molecular target: Acetylcholine receptor on AchR-overexpressed TE671 cells; test: cell-based or functional assay; remark: listed apart in the source

Row | Molecule | IC50 value for AchR (inhibition of AchR action, TE671 cells) [1] | AchR inhibitory rate (400 µM nicotine, peptide at 20 µM) [2] | IC50 value for AchR (inhibition of AchR action, TE671 cells) [2] | AchR inhibitory effect, fold against Spep-2 [2] | inhibitory ability on nicotinic acetylcholine receptors, multiple of Spep-2 [2]
1 | bungarotoxin (from UniProt P60615 22-95) | 7.5 nM | – | – | – | –
2 | WTWKGRKSLLR (modifications not checked) [Spep-2] | – | 10% | 750 nM | – | –
3 | WTWKGRKSLLR (modifications not checked) [Palmitoyl-Spep-2] | – | – | 75 nM | 10 times | –
4 | RFRRGVRR (modifications not checked) [L1-13] | – | 100% | – | – | –
5 | RYAKHRKRQTR (modifications not checked) [L2-110] | – | 100% | – | – | 8 times
6 | RARKKRKSLLRRQV (modifications not checked) [L3-27] | – | 100% | – | – | 8 times
7 | PNGKVRKRIRRRYF (modifications not checked) [L3-28] | – | 100% | – | – | 16 times
8 | SNVKRKRGRCKPYR (modifications not checked) [L3-37] | – | 100% | – | – | 32 times

Reference: patent EP3904368A2
